Consider 1 compound from paper PMC7557402, “Evaluation of Nucleoside Analogs as Antimicrobials Targeting Unique Enzymes in Borrelia burgdorferi” (Pathogens, 2020).

For the series, the system named is Borrelia MTANs (Bgp, MtnN, Pfs). Put plainly: MTAN activity/kinetics, across the nucleosidases. In kind it is biochemical. The settings on record: Ki and Ki’ compared with the other nucleosides. The protocol:
Enzyme specific activities were determined using previously reported optimal pH conditions (50 mM sodium phosphate, pH = 7, for Bgp, MtnN; 50 mM sodium phosphate-citrate, pH = 5, for Pfs) and a spectrophotometric activity assay that measures the decrease in UV absorbance at 275 nm that occurs when MTA is cleaved to 5-methylthioribose and adenine (ε275 = 1.6 mM^−1cm^−1). The extinction coefficients for cleavage of other nucleosides were experimentally validated and found to be the same for MSeA, FSBA, and IADO (ε275 = 1.6 mM^−1cm^−1). Due to the added UV absorbance imparted by the 5′ purine group found in PurTA, the enzyme reactions were followed spectrophotometrically at 260 nm using the experimentally determined extinction coefficient of ε260 = 5.6 mM^−1cm^−1. Enzyme specific activities for MTA were generally 1–2 U/mg (1 U = µmol MTA hydrolyzed/min). The enzyme specific activities for other nucleosides were determined and reported in U/mg and as the % max specific activity (relative to MTA at 100%).
Kinetic constants have been previously reported for MTA [18]. […]

As to `CCC[C@H]1N[C@@H](c2c[nH]c3c(N)ncnc23)[C@H](O)[C@@H]1O` [dEt-ImmA, 5′-deoxy-5′-ethyl-immucillin A], the “affinity for MTANs tighter than the other nucleosides” value is listed as “approximately 1000 fold”.
